Values quoted from earlier work, collected in patent US20230172941A1, “PROPHYLAXIS AND TREATMENT OF PATHOGENIC CORONAVIRUS INFECTIONS” (published 2023).

Tested on: chimeric antigen-receptor modified T cells

Substance: ibrutinib
- activity of CAR T cells in killing their targets: augments the activity of chimeric antigen-receptor modified T cells in killing their targets
